According to US4939177A, “Use of avarol for the control of AIDS and ARC” (Merz + Co. GmbH & Co., priority 1986, dated 1990):

Test system: HTLV-III reverse transcriptase
Assay: Reverse transcriptase activity in supernatant of H9-HTLV-III cells (virus production)
Details: for Reverse Transcriptase activity (in %): four-day addition, none = 100, 5760 min

CC1=CCC[C@H]2[C@](C)(Cc3cc(O)ccc3O)[C@@H](C)CC[C@]12C [Avarol, 2-[(1R)-1,2,3,4,4a,7,8,8aα-octahydro-1β,2β,4aβ,5-tetramethyl-1-naphthylmethyl]-1,4-benzenediol]
Reverse Transcriptase activity (in %) (0.1 μg/ml): 36%
Reverse Transcriptase activity (in %) (1 μg/ml): 20%
Reverse Transcriptase activity (in %) (5 μg/ml): 18%
reverse transcriptase activity in the supernatant, in words (H9-HTLV-III cells): dose-dependent reduction of the reverse transcriptase activity
